Results of unrelated studies side by side (data: NIAID ChemDB).

All rows: target-level tests; organism: HIV-1; target: Reverse transcriptase; read-out: IC50

ICn is the concentration giving n% inhibition. An empty or dashed field is not shown. Conditions beyond the fields shown may differ between rows.

structure,strain,mutations,method,result
c1ccc(C2SCc3nc4ccccc4n32)cc1,,RT-V179D,,~50 µM
Cn1cc(C(=O)O)c(=O)c2cc(Br)c(Oc3ccnc(Nc4ccc(C#N)cc4)n3)cc21,,,RT activity / fluorescence,1.15 µM
O=C(O)c1ccc(-c2cccc(/C=N/NC(=O)c3cc(O)c(O)c(O)c3)c2)cc1,,,,0.3 µM
Cc1[nH]c(=O)c(CCc2nc3ccccc3o2)cc1C(C)C,,,nucleotide incorporation,0.05 µM
CC(C)(C)n1cc(C(=O)O)c(=O)c2cc(Br)c(Oc3ccnc(Nc4ccc(C#N)cc4)n3)cc21,,,RT activity / fluorescence,10.05 µM
C[C@H](Cn1cnc2c(N)ncnc21)OCP(=O)(O)OP(=O)(O)OP(=O)(O)O,,,,25 µM
Cc1cn([C@@H]2O[C@H](CO[Si](C)(C)C(C)(C)C)[C@@]3(OS(=O)(=O)C(/C=C/CO)=C3N)[C@H]2O[Si](C)(C)C(C)(C)C)c(=O)[nH]c1=O,,RT-E138K,nucleotide incorporation,>500 µM
CCC1(c2ccc(CNc3cccc(F)c3)cc2)Oc2ccccc2-n2cccc2C1=O,WT,,nucleotide incorporation / radiometric,0.4 µM
Nc1ncnc2c1ncn2CCOCP(=O)(O)O,,,,>100 µM
O=C(/C=C/c1ccc(O)c2c1[C@H](C(=O)O)[C@@H](c1ccc(O)c(O)c1)O2)O[C@H](Cc1ccc(O)c(O)c1)C(=O)O,IIIB,,nucleotide incorporation,0.8 µM
CO[C@H]1/C=C/O[C@@]2(C)Oc3c(C)c(O)c4c(O)c(c5c(c4c3C2=O)NC2(CCN(CC(C)C)CC2)N=5)=NC(=O)/C(C)=C\C=C\[C@H](C)[C@H](O)[C@@H](C)[C@@H](O)[C@@H](C)[C@H](OC(C)=O)[C@@H]1C,,,nucleotide incorporation,75 µg/mL
O=C(Nc1cc(-c2ccc3c(c2)CCCC3)[nH]n1)c1cccs1,NL4-3,K103N,RT activity / nucleotide incorporation / luminescence,0.55 µM
O=C(CCCCCCCCCCC(=O)Nc1cc(S(=O)(=O)O)cc2cc(S(=O)(=O)O)cc(O)c12)Nc1cc(S(=O)(=O)O)cc2cc(S(=O)(=O)O)cc(O)c12,,,RT activity,2.8 µM
C=C1OC(C(=O)O)C(/C(=C/C(=O)O)C(=O)OC2C3COC(=O)c4cc(O)c(O)c(O)c4-c4c(cc(O)c(O)c4O)C(=O)OC2C(O)C(OC(=O)c2cc(O)c(O)c(O)c2)O3)c2c1cc(O)c(O)c2O,,,,0.05 µM
CCC(C)n1cc(C(=O)O)c(=O)c2cc(I)c(Oc3ccnc(Nc4ccc(C#N)cc4)n3)cc21,,,RT activity / fluorescence,1.38 µM
Fc1cccc(F)c1C1SCc2nc3ccccc3n21,,,nucleotide incorporation,7.3 µM
CCc1cc(CCc2nc3c(Cl)ccc(Cl)c3o2)c(=S)[nH]c1C,,RT-Y181C,nucleotide incorporation,0.05 µM
CCC1(c2ccc(CNc3ccccc3)cc2)Oc2ccccc2-n2cccc2C1=O,WT,,nucleotide incorporation / radiometric,0.09 µM
O=C(/C=C/c1ccc(O)c2c1[C@H](C(=O)O[C@H](Cc1ccc(O)c(O)c1)C(=O)O)[C@@H](c1ccc(O)c(O)c1)O2)O[C@H](Cc1ccc(O)c(O)c1)C(=O)O,,,,68 µM
Oc1cccc(-c2c3nc(c(-c4cccc(O)c4)c4ccc([nH]4)c(-c4cccc(O)c4)c4nc(c(-c5cccc(O)c5)c5ccc2[nH]5)C=C4)C=C3)c1,,,RT activity,5 µM
Nc1ncnc2c1ncn2[C@H]1CC[C@@H](COP(=O)(O)OP(=O)(O)OP(=O)(O)O)O1,HXB2,,ELISA,6.8 µM
N#Cc1ccc(Nc2nccc(Oc3cc4c(cc3Br)c(=O)c(C(=O)O)cn4C3CCCCC3)n2)cc1,,,RT activity / fluorescence,3.44 µM
Nc1nc2c(ncn2[C@H]2CC[C@@H](COP(=O)(O)OP(=O)(O)OP(=O)(O)O)O2)c(=O)[nH]1,,,,0.5 µM
CCOc1ccccc1N1CCN(C(=O)c2cc3cc4c(cc3[nH]2)OCO4)CC1,IIIB,RT-Y181C,,>50 µM
Cc1cn([C@H]2C[C@H](F)[C@@H](COP(=O)(O)OP(=O)(O)OP(=O)(O)O)O2)c(=S)[nH]c1=O,,,,0.175 µM
O=c1c2ccccc2n2nnc3ccc(NCCCN4CCN(CCCNc5ccc6nnn7c8ccccc8c(=O)c5c67)CC4)c1c32,,,nucleotide incorporation,>100 µM
O=C(Nc1cc(-c2ccc3c(c2)CCCC3)[nH]n1)c1ccno1,NL4-3,WT,RT activity / nucleotide incorporation / luminescence,0.92 µM
O=c1c(O[C@@H]2OC[C@@H](O)[C@H](O)[C@@H]2O)c(-c2ccc(O)c(O)c2)oc2cc(O)cc(O)c12,IIIB,,nucleotide incorporation,1000 µM
CC[C@H]1OC(=O)[C@H](C)[C@@H](O[C@H]2C[C@@](C)(OC)[C@@H](O)[C@H](C)O2)[C@H](C)[C@@H](O[C@@H]2O[C@H](C)C[C@H](N(C)C)[C@H]2O)[C@](C)(O)C[C@@H](C)/C(=N\OC)[C@H](C)[C@@H](O)[C@]1(C)O,,,,<160 µM
O=C(O)C1=C[C@@H](O)[C@@H](O)[C@H](OC(=O)c2cc(O)c(O)c(O)c2)C1,,,,92 µM
N#Cc1ccc(Nc2nccc(Oc3cc4c(cc3Br)c(=O)c(C(=O)O)cn4C3CC3)n2)cc1,,,RT activity / fluorescence,10.05 µM
COC(=O)C1(O)CC(OC(=O)/C=C/c2ccc(O)c(O)c2)C(O)C(OC(=O)/C=C/c2ccc(O)c(O)c2)C1,,,,1.7 µM
COC(=O)/C=C/C1=C(N)C2(OS1(=O)=O)[C@@H](CO[Si](C)(C)C(C)(C)C)O[C@@H](n1cc(C)c(=O)n(C)c1=O)[C@@H]2O[Si](C)(C)C(C)(C)C,,RT-E138K,nucleotide incorporation,>500 µM
OCCc1c[nH]c2ccc(O)cc12,,,,>8000 µM
Oc1c(Cl)cc(Cl)cc1-c1c(Cl)cc(Cl)c(Oc2ccc(Cl)cc2Cl)c1O,,,,54 µM
Nc1ncnc2c1ncn2[C@H]1CC[C@@H](CO)O1,,,,>1000 µM
NC(=O)c1[nH]c2ccc(Cl)cc2c1S(=O)c1ccccc1,,,RT activity,0.02 µM
Nc1ccn([C@H]2CC[C@@H](COP(=O)(O)OP(=O)(O)OP(=O)(O)O)O2)c(=O)n1,,RT-L74V T215Y K219Q,ELISA,16.2 µM
C[C@H](Cn1cnc2c(=O)[nH]c(N)nc21)OCP(=O)(O)O,,,,>100 µM
CNC(=O)c1[nH]c2ccc(Cl)cc2c1Sc1ccccc1,,,strand transfer,0.02 µM
O=C(O)C1=C[C@@H](OC(=O)c2cc(O)c(O)c(O)c2)[C@@H](O)[C@H](OC(=O)c2cc(O)c(O)c(O)c2)C1,,,,0.52 µM
O=c1c(O[C@@H]2OC[C@H](O)[C@H](O)[C@H]2O)c(-c2ccc(O)c(O)c2)oc2cc(O)cc(O)c12,IIIB,,nucleotide incorporation,>1000 µM
CC(C)Nc1cccnc1N1CCN(C(=O)c2cc3cc4c(cc3[nH]2)OCO4)CC1,IIIB,,,0.56 µM
N#Cc1ccc(Nc2nccc(Oc3cc4c(cc3Br)c(=O)c(C(=O)O)cn4C3CCCC3)n2)cc1,,,RT activity / fluorescence,2.81 µM
NC(=O)c1[nH]cnc1-c1ccc(Cl)c(Br)c1,,,fluorescence,>41 µM
CCc1cc(CCc2nc3c(Cl)ccc(Cl)c3o2)c(=O)[nH]c1C,,RT-K103N,nucleotide incorporation,0.3 µM
CCCn1cc(C(=O)O)c(=O)c2cc(I)c(Oc3ccnc(Nc4ccc(C#N)cc4)n3)cc21,,,RT activity / fluorescence,0.63 µM
Nc1ncnc2c1ncn2[C@H]1CC[C@@H](COP(=O)(O)OP(=O)(O)OP(=O)(O)O)O1,,,,0.6 µM
S=C(NCCc1ccc(Br)cc1)Nc1ccc(Br)cn1,,,scintillation proximity,2.7 µM
CCCn1cc(C(=O)O)c(=O)c2cc(Br)c(Oc3ccnc(Nc4ccc(C#N)cc4)n3)cc21,,,RT activity / fluorescence,0.83 µM
CC(CCN1CCC(c2ccccc2)CC1)(CN1C(=O)N[C@H](Cc2c[nH]c3ccccc23)C1=O)c1ccccc1,,,,3.32 µM
COc1ccccc1N1CCN(C(=O)c2cc3cc4c(cc3[nH]2)OCO4)CC1,IIIB,RT-P236L,,>50 µM
O=C(Nc1cc(-c2ccc3c(c2)CCCC3)[nH]n1)c1ccc(-c2ccncc2)s1,NL4-3,Y181C,RT activity / nucleotide incorporation / luminescence,0.22 µM
CC(C)CCC[C@@H](C)[C@H]1CC[C@H]2[C@@H]3CC[C@H]4C[C@@H](CCC=C(c5cc(Cl)c(O)c(C(=O)O)c5)c5cc(Cl)c(O)c(C(=O)O)c5)CC[C@]4(C)[C@H]3CC[C@]12C,,,,0.36 µM
O=C(O[C@@H]1CC(O)(C(=O)O)C[C@@H](OC(=O)c2cc(O)c(O)c(O)c2)C1O)c1cc(O)c(O)c(O)c1,,,,1.31 µM
CCC1(c2cccc(N)c2)Oc2ccccc2-n2cccc2C1=O,,RT-Y181I,nucleotide incorporation / radiometric,>10 µM
Nc1ccn([C@H]2CC[C@@H](COP(=O)(O)OP(=O)(O)OP(=O)(O)O)O2)c(=O)n1,HXB2,,,5.6 µM
CCC1(c2ccc(Cn3ccsc3=N)cc2)Oc2ccccc2-n2cccc2C1=O,,RT-K103N,nucleotide incorporation / radiometric,5 µM
O=C(Nc1cc(-c2ccc3c(c2)CCCC3)[nH]n1)c1ncccn1,NL4-3,Y181C,RT activity / nucleotide incorporation / luminescence,0.61 µM

Again, the opening 7 rows:

structure	strain	mutations	method	result
c1ccc(C2SCc3nc4ccccc4n32)cc1		RT-V179D		~50 µM
Cn1cc(C(=O)O)c(=O)c2cc(Br)c(Oc3ccnc(Nc4ccc(C#N)cc4)n3)cc21			RT activity / fluorescence	1.15 µM
O=C(O)c1ccc(-c2cccc(/C=N/NC(=O)c3cc(O)c(O)c(O)c3)c2)cc1				0.3 µM
Cc1[nH]c(=O)c(CCc2nc3ccccc3o2)cc1C(C)C			nucleotide incorporation	0.05 µM
CC(C)(C)n1cc(C(=O)O)c(=O)c2cc(Br)c(Oc3ccnc(Nc4ccc(C#N)cc4)n3)cc21			RT activity / fluorescence	10.05 µM
C[C@H](Cn1cnc2c(N)ncnc21)OCP(=O)(O)OP(=O)(O)OP(=O)(O)O				25 µM
Cc1cn([C@@H]2O[C@H](CO[Si](C)(C)C(C)(C)C)[C@@]3(OS(=O)(=O)C(/C=C/CO)=C3N)[C@H]2O[Si](C)(C)C(C)(C)C)c(=O)[nH]c1=O		RT-E138K	nucleotide incorporation	>500 µM